{"source": "patent US20250218531A1", "target": "SARS-COV-2 Omicron Spike RBD (SARS-CoV-2) (UniProt P0DTC2)", "test": "SPR"}
{"substance": "Casirivimab (Fab)", "values": [{"measurement": "Kd", "result": 240, "unit": "nM"}]}
